Several values for one entry are separate records, joined by “and”; a condition that tells them apart may be missing. Unless stated, no cut-off for active and inactive is given here. Equal values may be shown once.
Test: Isosbestic point determination, UV-VIS spectra with Fe3+ (iron chelation)
Assay type: physicochemical
Conditions: compound in DMSO with FeCl3

Row | Compound | Isosbestic point of complexes with iron | Interaction with Fe3+ (isosbestic points observable)
1 | CN(C)C(=S)NN=Cc1c(O)ccc2cccnc12 [Compound 4j] | 330 nm and 385 nm | 
2 | CNC(=S)NN=Cc1c(O)ccc2cccnc12 [Compound 4i] |  | less visible points
3 | CN(C)C(=S)NN/C=C/c1ccc2ccccc2n1 [Compound 4b, (E)-2-(Quinolin-2-ylvinyl)-N,N-dimethylhydrazinecarbothioamide] | 375 nm | 
4 | NC(=S)N/N=C/c1cccc(Cl)c1Cl [Compound 3a, (E)-2-(2,3-Dichlorobenzylidene)hydrazinecarbothioamide] |  | inactive
5 | CN(C)C(=S)N/N=C/c1ccc(Br)cc1 [Compound 3m, (E)-2-(4-bromobenzylidene)-N,N-dimethylhydrazinecarbothioamide] |  | inactive
